{"source": "ChEMBL document CHEMBL1157072", "about": "“Efflux-mediated bis-indole resistance in Staphylococcus aureus reveals differential substrate specificities for MepA and MepR” (Bioorg Med Chem, 2010)", "test_system": "Staphylococcus aureus", "conditions": "isolate d20A1", "data": [{"sequence": "GENTAMICIN", "values": [{"measurement": "MIC", "result": 0.5, "unit": "µg/mL"}]}]}
